Data from article doi:10.1101/456418.
For at least one entry, the source does not settle the construct or the ends of the probe. No signal at the amounts used counts as a negative.

What was measured:
[1] = tested on: KPAF4-WT (Trypanosoma brucei (procyclic 29-13)); test: EMSA
[2] = tested on: KPAF4-Mut (Trypanosoma brucei (procyclic 29-13)); test: EMSA; details: within the protein concentration range afforded by the assay

GGGUGGUGGUUUUGUUGAUUUACCCGGUGUAAAGUAUUAUACACGUAUUGUAAGUUAGAUUUAGAUAUAAGAUAUGUUUUU [No-tail RPS12 RNA]
binding result [1]: no binding
binding result [2]: no binding

GGGUGGUGGUUUUGUUGAUUUACCCGGUGUAAAGUAUUAUACACGUAUUGUAAGUUAGAUUUAGAUAUAAGAUAUGUUUUUAAAAAAAAAAAAAAAAAAAA [A-tail RPS12 RNA]
binding result [1]: binds
binding result [2]: no binding

GGGUGGUGGUUUUGUUGAUUUACCCGGUGUAAAGUAUUAUACACGUAUUGUAAGUUAGAUUUAGAUAUAAGAUAUGUUUUUUUUUUUUUUUUUUUUUUUUU [U-tail RPS12 RNA]
binding result [1]: no binding
binding result [2]: no binding
